Measurements: the supplement of paper PMC9931576
Human monoclonal antibodies against the spike receptor-binding domain (heavy:light variable regions). IC50 against pseudoviruses bearing the spike of naturally observed variants; lower = stronger; >10 µg/ml means not reached at the top dose. No active / inactive call. The stated detection limit is 0.0005 µg/ml; values near or below 0.001 µg/ml lie at the floor of the assay.

Legend:
Assay in all cases: pseudovirus neutralization IC50; higher = weaker neutralization
[1] = target: SARS-CoV-2 Omicron BA.1 spike pseudovirus
Description: (§1)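 Single-round VSV luciferase pseudovirus mixed with antibody dilutions for 1 h and put on Huh-7 cells for about a day; IC50 from the dose curve.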

[2] = target: SARS-CoV-2 Omicron BA.2 spike pseudovirus
Description: as §1

[3] = target: SARS-CoV-2 Omicron BA.2.75 spike pseudovirus
Description: as §1

[4] = target: SARS-CoV-2 Omicron BA.5 spike pseudovirus
Description: as §1

[5] = target: SARS-CoV-2 Omicron BQ.1.1 spike pseudovirus
Description: as §1

[6] = target: SARS-CoV-2 Omicron XBB spike pseudovirus
Description: as §1

[7] = target: SARS-CoV-2 early D614G spike pseudovirus
Description: as §1

Row | Binder | pseudovirus neutralization IC50 [1] [µg/mL] | pseudovirus neutralization IC50 [2] [µg/mL] | pseudovirus neutralization IC50 [3] [µg/mL] | pseudovirus neutralization IC50 [4] [µg/mL] | pseudovirus neutralization IC50 [5] [µg/mL] | pseudovirus neutralization IC50 [6] [µg/mL] | pseudovirus neutralization IC50 [7] [µg/mL]
1 | BD55-5466 (protein) chain 1: EVQLVESGGGLVKPGGSLRLSCSASGFTFSSYTLGWVRQAPGKGLEWVSSISGSSTFIFYADSVQGRFTISRDNAKNSLYLQMNSLRAEDTAVYYCTRNFDVLTAYADAEYFQHWGQGTLVSVSS chain 2: EIVLTQSPAMLSLSPGERATLSCRASQSVDTYLAWYQQKPGQAPRLLIYDASNRATGIPARFSGSGSGTDFTLTISSLEPEDFAVYYCQQRTNWPPYTFGQGTKLEIK | 1.02 | 5.97 | 2.77 | 4.53 | 3.16 | 3.96 | 0.269
2 | BD55-5470 (protein) chain 1: QLQLQGSGPGLVKPSETLSLTCTVSGGSISSSSHYWGWIRQPPGKGLEWIGSIYYSGSTRYNPSLKSRLTMSVDTSKNQFSLKLRSVIAADSAVYYCARLLVRGAIMQPEDYDYGMDVWGQGTTVTVSS chain 2: DIQMTQSPSTLSASVGDRVTITCRASQSISHWLAWYQQKPGRAPKLLIYKASNLESGVPSRFSGSGSGTEFTLTISSLQPDDFATYYCQEYYSLWTFGQGTKVEIK | > 10 | > 10 | > 10 | > 10 | > 10 | > 10 | 0.561
3 | BD55-5472 (protein) chain 1: QITLRESGPTLVKPTQTLTLTCTFSGFSVNKNGVAVGWIRQPPGKALEWLALIYWDDEKRYSPLLKTRLTITKDTSKNQVVLTMTNMDPVDTATYYCAHRPDLDTDMVVVDAFDVWGQGTMVTVSS chain 2: QSVLTQPPSASGTPGQRVTISCSGSSSNIGRNAVNWYQQLPGTAPKLLIYNNNHRPSGVPDRFSGSKSGTSASLAISGLQSEDEADYYCASWDDSLSGVLFGGGTKLTVL | 0.512 | 0.732 | 0.898 | 0.7 | 0.764 | 0.97 | 0.108
4 | BD55-5473 (protein) chain 1: QVQLQESGPGLVKPSETLSLTCTVSGASTSTFYWSWIRQPPGKGLEWIGYIFYSGSTNYNPSLKSRVTMSVDTSKNQFSLNLSSVTAADTAVYYCARECGGDCYSMQAFDIWGQGTMVTVSS chain 2: SYELTQPPSVSVSPGQTARITCSGDALPNQYVYWYQQRPGQAPVLVIYKDTERPSGIPGRFSGSSSGTTVTLTISGVQAEDEADYYCQSTDSGGIYGKRVFGGGTKLTVL | > 10 | > 10 | > 10 | > 10 | > 10 | > 10 | 0.664
5 | BD55-1065 (protein) chain 1: QVQLVQSGAEVKQPGSSVRVSCRASGDTFNNYAINWVRQAPGQGLEWMGRIIPIVAATSYAQRFQGRVTMTADKSTSTAHMELSTLRSDDTAVYFCATSRYSAGYLYYFDYWGQGTLVTVSS chain 2: EIVLTQSPGTLSLSPGERVTLSCRASQSISSDYLAWYQQKPGQGPRLLIYAASSRATGIPDRFSGSGSGTDFTLTVSRLEPEDFAVYYCQQYATSRTFGQGTKVEIK | > 10 | > 10 | > 10 | > 10 | > 10 | > 10 | 0.00132
6 | BD55-5477 (protein) chain 1: QVTLKESGPVLVKPTETLTLTCTVSGFSLSDARMGVSWIRQPPGKALEWLAHIFSNDEKSYSTSLTSRLTISKDTSKSQVVLTMTNMDPVDTGTYYCARSQGGWVMEDYYYYMDVWGKGTTVTVSS chain 2: EIVMTQSPATLSVSPGERATFSCRASQSLTRNLAWFQQKPGQAPRLLIYGSSTRATGIPARFSGSGSGTEFTLTISSLQSEDFAVYYCQHYNNWPPTWTFGQGTKVEIK | 0.0212 | 0.0559 | 0.195 | 0.0927 | 0.9 | 3.84 | 0.00158
7 | BD55-5485 (protein) chain 1: QITLSESGPTLVKPTQTLTLTCTFSGFSLSNIRVGVGWIRQPPGKALEWLALIYGDDDKRYSPSLKSRVTVTKDTSKNQVVLIMTNMDPVDTATYYCAHAAYGGSWHYLGFDSWGQGTLVTVSS chain 2: QSLLTQPPSASGTPGQRVTISCSGSSSNIGNNPVNWYQQLPGTAPKLLIYIYNQRPSGVPDRFSGSKSGTSASLAISGLQSEDEADYYCAAWDDSLNGPVFGGGTKLTVL | > 10 | > 10 | > 10 | > 10 | > 10 | > 10 | > 10
8 | BD55-5493 (protein) chain 1: QVQLQESGPGLVKPSETLSLTCTVSSGSIRGYYWSWIRQPPGKGLEWMAYVYSSGSTNYNPSLKSRLSISEDTTNNQFSLKLRSVTAADTAVYYCARHAFYYDSSGLRSHDNWFDSWGQGTRVTVSS chain 2: DIQMTQSPSSVSASVGDRVTITCRASQGISNWLAWYQQKPGKAPKLLIYDISTLQNGVPSRFSGSGSGTDFTLTISSLQPEDFATYYCQQANSFPWTFGQGTKVEIK | > 10 | > 10 | > 10 | > 10 | > 10 | > 10 | 0.119
9 | BD55-5495 (protein) chain 1: EVQLVVSGGGLVQPGGSLRLSCAASGFTFSSYDMHWVRQAKGKGLEWVSAIGTAGDTYYADSVKGRFTISRENARTSLYLQMSRLRDGDTAVYYCVRGDFDSSGFVGWFDPWGQGTLVAVSS chain 2: DFQMTQSPSSLSASVGDRVTITCRASQYINNYLNWYQQKPGKAPKLLIYAASSLQSGVPSRFSGSGSGRDFTLTISSLQPEDFATYYCQQSYATPPWTFGPGTKVDIK | > 10 | > 10 | > 10 | > 10 | > 10 | > 10 | 1.31
10 | BD55-5501 (protein) chain 1: QVQLVQSGSELKRPGASVKVSCKASGYSFTSNAMNWVRQAPGQGLEWMGWINTETGSPTYAQGFTGRFVFSLDTSVRTAYLQISSLKAEDTAVYYCASNIRFGEYCFDPWGQGTLVTVS chain 2: DIQMTQSPSSVSASVGDRVTITCRAGLHFSSWVAWYQQKPGKAPKLLIYATSSLQSGVPSRFSGSGSGTDFTLTISSLQPEDFATYYCQQGSTFPLTFGGGTKVEIK | > 10 | > 10 | > 10 | > 10 | > 10 | > 10 | 0.0228
11 | BD55-5502 (protein) chain 1: EVQLVESGGGLVQPGGSLRLSCTASGFTFTTYAMHWVRQAPGKGLEFVSSITSDGGGAFYADSVEGRFTISRDNSKNTLYLQMGSLRTEDMAVYYCAREGPKIDVTLDYWGQGTLVTVSS chain 2: DIQMTQSPSSLSASVGDRVTITCRASQSITKYLNWYQHKPGRPPKLLISGASSLQRGVPSRFSGSGSGTDFTLTISSLQPEDFATYYCQQSYSSPQYTFGQGTKLEIK | > 10 | > 10 | > 10 | > 10 | > 10 | > 10 | > 10
12 | BD55-5517 (protein) chain 1: EVQLVETGGGLIQPGGSLRLSCAASGFSVRSNYMTWVRQAPGKGLEWVSVIYSDGTTYYADSVKGRFTISRDNSKNTLYLQMNSLRAEDTAVYYCARVVSDAFDIWGQGTMVTVSS chain 2: DIQMTQSPSTLSASVGDRVTITCRASQSLSRELAWYQQKPGKAPKLLIYMASILESGVPSRFSGSGSGTEFTLTISSLQPDDFATYYCQQYNRYSEMYTFGQGTKLEIK | 3.62 | 7.38 | 4.06 | 5.74 | 4.61 | 7.21 | 2.16
